In PMC6602958, “Pharmacokinetics of anti-infectious reagents in silkworms” (Scientific Reports, 2019):

What was measured:
Candida albicans [1] = assay: Silkworm infection model with Candida albicans (ED50); type: in vivo, Bombyx mori (silkworm); conditions: ED50 against MIC in the absence of hemolymph
Candida albicans [2] = assay: Antifungal activity (MIC) by micro dilution with or without silkworm hemolymph; type: cell-based; conditions: MIC with 10% hemolymph / MIC without hemolymph
Description: Antimicrobial and antifungal activities of each compound were measured by a micro dilution method[19],[20]. To measure protein binding to antifungal activity, silkworm hemolymph was collected by cutting the pseudopodium using scissors, and centrifuged at 3000 rpm for 5 min at 4 °C.

Compound | ED50/MIC(A) ratio (Candida albicans [1]) | MIC ratio (B/A) (Candida albicans [2])
Clc1ccccc1C(c1ccccc1)(c1ccccc1)n1ccnc1 [Clotrimazole] | >250 | 33
CC(=O)N1CCN(c2ccc(OCC3COC(Cn4ccnc4)(c4ccc(Cl)cc4Cl)O3)cc2)CC1 (stereo not shown) [Ketoconazole] | >250 | 33
